{"source": "PubChem BioAssay AID1224833 (University of Georgia, 2016)", "purpose": "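Host factors restraining rotavirus as candidate antiviral genes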 (primary screen)", "cells": "monkey MA104 kidney cells", "reagent": "siRNA pool against human genes, 50 nM", "time to read-out": "48 h knock-down before infection; read 24 h after infection", "conditions": "infection with rotavirus strain RV3 two days after transfection; infectious dose for this stage not given", "measured": "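z-score of rotavirus antigen signal per well, from a fluorescent immunoassay, relative to non-targeting control wells on the same plate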", "direction": "z-score vs non-targeting control: higher = more rotavirus replication than with non-targeting control", "rule for the call": "In these data the active calls have z-score vs non-targeting control at about -1 or lower, or at about 1 or higher", "calls": "active = z-score beyond 1 either way; inactive = z-score within 1 of zero", "note": "This is a random part of about 12,000 reagents. About 5,600 of all reagents (46%) count as active. 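Active calls cover z-scores past 1 in both directions, so they include lowered as well as raised rotavirus replication.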 Entries without a mark were called inactive. No sequences are given here."}
{"Gene": "AGRN (agrin)", "z-score vs non-targeting control": -0.888}
{"Gene": "CYREN (cell cycle regulator of NHEJ)", "z-score vs non-targeting control": "-1.92 (active)"}
{"Gene": "RPUSD2 (RNA pseudouridine synthase domain containing 2)", "z-score vs non-targeting control": -0.815}
{"Gene": "RPF2 (ribosome production factor 2 homolog)", "z-score vs non-targeting control": "1.54 (active)"}
{"Gene": "OR2T1 (olfactory receptor family 2 subfamily T member 1)", "z-score vs non-targeting control": -0.809}
{"Gene": "PLIN1 (perilipin 1)", "z-score vs non-targeting control": "-1.84 (active)"}
{"Gene": "REEP5 (receptor accessory protein 5)", "z-score vs non-targeting control": "-2.35 (active)"}
{"Gene": "NTNG1 (netrin G1)", "z-score vs non-targeting control": "-2.7 (active)"}
{"Gene": "RAVER2 (ribonucleoprotein, PTB binding 2)", "z-score vs non-targeting control": "-1.59 (active)"}
{"Gene": "RGL2 (ral guanine nucleotide dissociation stimulator like 2)", "z-score vs non-targeting control": -0.825}
{"Gene": "IFT43 (intraflagellar transport 43)", "z-score vs non-targeting control": 0.671}
{"Gene": "PBDC1 (polysaccharide biosynthesis domain containing 1)", "z-score vs non-targeting control": "2.25 (active)"}
{"Gene": "NLRP2 (NLR family pyrin domain containing 2)", "z-score vs non-targeting control": "-1.1 (active)"}
{"Gene": "EIF2B4 (eukaryotic translation initiation factor 2B subunit delta)", "z-score vs non-targeting control": "-1.56 (active)"}
{"Gene": "OBSCN", "z-score vs non-targeting control": -0.0817}
{"Gene": "SKOR2 (SKI family transcriptional corepressor 2)", "z-score vs non-targeting control": -0.708}
{"Gene": "ATF1 (activating transcription factor 1)", "z-score vs non-targeting control": 0.925}
{"Gene": "ATG2B (autophagy related 2B)", "z-score vs non-targeting control": -0.335}
{"Gene": "CLUL1 (clusterin like 1)", "z-score vs non-targeting control": 0.263}
{"Gene": "TSLP (thymic stromal lymphopoietin)", "z-score vs non-targeting control": "2.48 (active)"}
{"Gene": "TMEM126A (transmembrane protein 126A)", "z-score vs non-targeting control": -0.817}
{"Gene": "ABHD16A (abhydrolase domain containing 16A, phospholipase)", "z-score vs non-targeting control": 0.784}
{"Gene": "C21orf58 (chromosome 21 open reading frame 58)", "z-score vs non-targeting control": "-1.26 (active)"}
{"Gene": "VIM (vimentin)", "z-score vs non-targeting control": 0.916}
{"Gene": "ZNF334 (zinc finger protein 334)", "z-score vs non-targeting control": "-1 (active)"}
{"Gene": "DNAJB7 (DnaJ heat shock protein family (Hsp40) member B7)", "z-score vs non-targeting control": "-1.29 (active)"}
{"Gene": "ADAM18 (ADAM metallopeptidase domain 18)", "z-score vs non-targeting control": "1.11 (active)"}
{"Gene": "CTU2 (cytosolic thiouridylase subunit 2)", "z-score vs non-targeting control": "-1.88 (active)"}
{"Gene": "MPV17L2 (MPV17 mitochondrial inner membrane protein like 2)", "z-score vs non-targeting control": 0.444}
{"Gene": "WDR44 (WD repeat domain 44)", "z-score vs non-targeting control": -0.553}
{"Gene": "LIN28A (lin-28 RNA binding posttranscriptional regulator A)", "z-score vs non-targeting control": -0.281}
{"Gene": "ESRP2 (epithelial splicing regulatory protein 2)", "z-score vs non-targeting control": 0.249}
{"Gene": "SUOX (sulfite oxidase)", "z-score vs non-targeting control": "-2.2 (active)"}
{"Gene": "B4GALT7 (beta-1,4-galactosyltransferase 7)", "z-score vs non-targeting control": -0.647}
{"Gene": "BRF2 (BRF2 general transcription factor IIIB subunit)", "z-score vs non-targeting control": -0.956}
{"Gene": "MGAT3", "z-score vs non-targeting control": 0.54}
{"Gene": "CCDC116 (coiled-coil domain containing 116)", "z-score vs non-targeting control": -0.528}
{"Gene": "NKIRAS2 (NFKB inhibitor interacting Ras like 2)", "z-score vs non-targeting control": -0.963}
{"Gene": "CD2AP (CD2 associated protein)", "z-score vs non-targeting control": "-1.97 (active)"}
{"Gene": "HNRNPC (heterogeneous nuclear ribonucleoprotein C)", "z-score vs non-targeting control": "1.33 (active)"}
{"Gene": "ZNF692 (zinc finger protein 692)", "z-score vs non-targeting control": "-1.12 (active)"}
{"Gene": "FZD7 (frizzled class receptor 7)", "z-score vs non-targeting control": "-1.53 (active)"}
{"Gene": "ZBED1 (zinc finger BED-type containing 1)", "z-score vs non-targeting control": "-2.45 (active)"}
{"Gene": "TLX1NB (TLX1 neighbor)", "z-score vs non-targeting control": 0.964}
{"Gene": "TIE1", "z-score vs non-targeting control": 0.328}
{"Gene": "CIMIP1 (ciliary microtubule inner protein 1)", "z-score vs non-targeting control": "2.96 (active)"}
{"Gene": "APEX2 (apurinic/apyrimidinic endodeoxyribonuclease 2)", "z-score vs non-targeting control": -0.956}

7 entries already listed, ordered by “z-score vs non-targeting control”, ascending:
{"Gene": "TMEM126A (transmembrane protein 126A)", "z-score vs non-targeting control": -0.817}
{"Gene": "SKOR2 (SKI family transcriptional corepressor 2)", "z-score vs non-targeting control": -0.708}
{"Gene": "ATG2B (autophagy related 2B)", "z-score vs non-targeting control": -0.335}
{"Gene": "OBSCN", "z-score vs non-targeting control": -0.0817}
{"Gene": "CLUL1 (clusterin like 1)", "z-score vs non-targeting control": 0.263}
{"Gene": "ATF1 (activating transcription factor 1)", "z-score vs non-targeting control": 0.925}
{"Gene": "TSLP (thymic stromal lymphopoietin)", "z-score vs non-targeting control": "2.48 (active)"}
